Common to all, as to experiment: pseudovirus neutralization IC50; higher = weaker neutralization
Test [1] addresses SARS-CoV-2 Omicron BA.1 spike pseudovirus. The procedure:
(§1)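 Single-round VSV luciferase pseudovirus mixed with antibody dilutions for 1 h and put on Huh-7 cells for about a day; IC50 from the dose curve.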

Test [2] deals with SARS-CoV-2 Omicron BA.2 spike pseudovirus. Here is the method:
as §1

Test [3] concerns the target SARS-CoV-2 Omicron BA.2.75 spike pseudovirus. Here is the method:
as §1

In test [4] the target is SARS-CoV-2 Omicron BA.5 spike pseudovirus. The procedure: as §1
The target of test [5] is SARS-CoV-2 Omicron BQ.1.1 spike pseudovirus. Here is the method: as §1
Test [6] addresses SARS-CoV-2 Omicron XBB spike pseudovirus. Here is the method: as §1
The target in test [7] is SARS-CoV-2 early D614G spike pseudovirus. The procedure:
as §1

Human monoclonal antibodies against the spike receptor-binding domain (heavy:light variable regions). IC50 against pseudoviruses bearing the spike of naturally observed variants; lower = stronger; >10 µg/ml means not reached at the top dose. No active / inactive call. The stated detection limit is 0.0005 µg/ml; values near or below 0.001 µg/ml lie at the floor of the assay.

B1: BD56-906 (protein)
chain 1: QVQLVESGGGVVQPGRSLRLSCAASGFTFSSYGMHWVRQAPGKGLEWVAVISYDGSNKYYADSVKGRLTISRDNSKNTLYLQMSSLRAEDTAVYYCAKTDGTYAYYYYGMDVWGQGTTVTVSS
chain 2: QSALTQPASVSGSPGQSITISCTGTSSDVGFYNYVSWYQQHPGKAPKLMIYEVSNRPSGVSNRFSGSKSGNTASLTISGLQAEDEADYYCSSYTSSSTWVFGGGTKLTVL
For B1, the “pseudovirus neutralization IC50” value in test [1], in test [2], in test [3], in test [4], in test [5] and in test [6] was > 10 µg/mL each time. Further, the “pseudovirus neutralization IC50” value in test [7] is > 10 µg/mL.

B2: CV07-200 (protein)
chain 1: QVQLVQSGTEMKKPGASVKVSCKASGYTFTGYYMHWVRQAPGQGLEWMGWINPNSGGTNYAQKFQGRVTMTRDTSIRTVYMELSRLRSDDTAVYYCARGPFYYDNSGTLGGLDVWGQGTTVTVSS
chain 2: QSALTQPASVSGSPGQSITISCTGTSSDVGGYNYVSWYQQHPGKAPKLMIYEVSNRPSGVSNRFSGSKSGNTASLTISGLQAEDEADYYCSSYTSSSTYVFGTGTKVTVL
For B2, the “pseudovirus neutralization IC50” value in test [1], in test [2], in test [3], in test [4], in test [5] and in test [6] was > 10 µg/mL each time. Besides, the “pseudovirus neutralization IC50” value in test [7] amounted to 0.0301 µg/mL.

B3: BD56-902 (protein)
chain 1: EVQLVESGGSLVQPGRSLRLSCAASGFTFDDYAMHWVRQAPGKGLEWVSGISWNGHNIGYADSVKGRVTISRDNAKNSLYLQLNSLRAEDTALYYCAKDILGEWELHQAYFDYWGQGTLVTVSS
chain 2: QSVLTQPPSASGTPGQRVTISCSGSSSNIGSKFVYWYQHLPGTAPKLLIYRNNQRPSGVPDRFSGSKSGTSASLAISGLRSEDEAEYYCAAWDDSLSGPVFGTGTKVTVL
With B3, the “pseudovirus neutralization IC50” value in test [1], in test [2], in test [3], in test [4], in test [5] and in test [6] was > 10 µg/mL each time. The “pseudovirus neutralization IC50” value in test [7] was 0.316 µg/mL.

B4: BD56-916 (protein)
chain 1: QVQLQESGPGLVKPSETLSLTCTVSGASVSSRSWHWSWIRQSPGKGLEWIGYIHYSGSTKFNPSLKSRVTISVDTSKNQFSLKLRSVTAADTAVYYCARDGGGDYGEDWGQGTLVTVSS
chain 2: DIQMTQSPSTLSASVGDRVTITCRASQSINVWLAWYQQKPGKAPKLLIYKAYSLESGVPSRFSGSGSGTEFTLTISSLQPDDFATYYCQQYSSYWTFGQGTKVEMK
On to B4, for which the “pseudovirus neutralization IC50” value in test [1], in test [2], in test [3], in test [4], in test [5] and in test [6] was > 10 µg/mL throughout. Also, the “pseudovirus neutralization IC50” value in test [7] came out at 0.338 µg/mL.

B5: BD56-928 (protein)
chain 1: QLQLQESGPGLVKPSETLSLTCTVSGGSVNSGRYYWSWIRQPPGKGLEWIASIFFGGSTYYNPSLKSRVIISVDTSKNQFNLKLRSVTAADTAVYYCARGPGVLGEWGQGTLVTVSS
chain 2: DIQMTQSPSSLSASVGDRVTITCRASQGISNSLAWYQQKPGKAPKLLLYGASTLESGVPSRFSGSGSGTDFTLTISSLQPEDFATYYCQHYYSTWTFGQGTKVEIK
Take B5: the “pseudovirus neutralization IC50” value is 0.331 µg/mL in test [1]; 0.238 µg/mL in test [2]; 0.0144 µg/mL in test [3]; > 10 µg/mL in test [4]; > 10 µg/mL in test [5]; > 10 µg/mL in test [6]. For the same molecule, in test [7], the “pseudovirus neutralization IC50” value came to 0.00279 µg/mL.

B6: BD56-733 (protein)
chain 1: QVQLQQWGAGLLKPSETLSLTCAVYGGSFSGYFWNWIRQPPGKGLEWIGEISHSGSTNYNPSLKSRVTISVDTSKNQFSLKLSSVTAADTAVYYCTRGGWEYYASLPGPNDYWGQGTLVTVSS
chain 2: DIVLTQSPDSLAVSLGERASITCKSSQSVFYNSNNKNYLAWYQQKPGQPPNLLIYWASARESGVPDRFSGSGSGTDFSLTISSLQAEDVAVYYCQQYYTTPYTFGQGTRLEIK
As to B6, the “pseudovirus neutralization IC50” value was found to be 0.379 µg/mL in test [1]; 3.02 µg/mL in test [2]; 3.48 µg/mL in test [3]; 3.07 µg/mL in test [4]; 3.14 µg/mL in test [5]; 2.33 µg/mL in test [6]. The “pseudovirus neutralization IC50” value in test [7] turned out to be 1.4 µg/mL.

B7: BD56-924 (protein)
chain 1: EVQLVESGGGLIQPGGSLRLSCAASGFTFSSYDMHWVRQGTGQRLEWVSVIGTAGDTYYPDSVKGRFTISRENAKNSLYLQMNSLRAGDTAVYYCARGNYDSSGYFVYFDYWGQGTLVTVSS
chain 2: DIQMTQSPSSLSASVGDRVTITCRASQSISSYLNWYHQKPGKAPKLLIYAASTLQSGVPSRFSGSGSGTDFTLTISSLQPEDFATYYCQQSYIIPSYTFGQGTELEIK
B7: the “pseudovirus neutralization IC50” value in test [1], in test [2], in test [3], in test [4], in test [5] and in test [6] was > 10 µg/mL in each case. Moreover, the “pseudovirus neutralization IC50” value in test [7] is > 10 µg/mL.

B8: BD56-926 (protein)
chain 1: QVQLVESGGGLVKPGGSLRLSCAASGFTFSDHYMGWVRQAPGKGLEWVSYISNSSSYTNYADSVKGRFTIFRDNAKNSLYLRMTSLRAEDTAVYYCARVHSVASYDTLTGYYRVGDAEYFQHWGQGTLVTVSS
chain 2: SYVLTQPPSVSVAPGKTARITCGGNNLGTKSVHWYHQKPGQAPVLVIYYDSNRPSGIPERFSGSKSGNTATLTISRVEAGDEADYYCQVWDSSSDHVVFGGGTKLTVL
For the molecule B8, the “pseudovirus neutralization IC50” value in test [1] was 0.496 µg/mL; in test [2], 0.627 µg/mL; in test [3] it was 0.298 µg/mL; in test [4], 0.485 µg/mL; in test [5] it was > 10 µg/mL; in test [6], 3.16 µg/mL. Also, the “pseudovirus neutralization IC50” value in test [7] was 0.0141 µg/mL.

B9: BD56-732 (protein)
chain 1: EVQLLESGGGLVQPGGSLRLSCAASRFIFSNYAMSWVRQAPGKGLEWVSGISGGGDSTHYADSVKGRFTISRDNSKNTLFLHMNSLRADDTAVYYCAKGARASGDYFEYWGQGTLVNVSS
chain 2: DIQMTQSPSTLSASVGDRVTITCRASQSIRNWLAWYQQKPGKAPNLLIYDASSLESGVPSRFSGSGSGTEFTLTISSLQPDDFATYYCQQYNTYPFTFGPGTKVDIK
For the molecule B9, the “pseudovirus neutralization IC50” value came out at 4.28 µg/mL in test [1]; 6.08 µg/mL in test [2]; 5.67 µg/mL in test [3]; 6.69 µg/mL in test [4]; 7.27 µg/mL in test [5]; 6.6 µg/mL in test [6]. Further, the “pseudovirus neutralization IC50” value in test [7] was > 10 µg/mL.

B10: BD56-887 (protein)
chain 1: QVQLVQSGAEVKKPGASVKVSCKASGYTFTSYDINWVRQATGQGLEWMGWMNPNRGNTGYAQKFQGRVTMTRNTSISTAYMELSSLRSEDTAVYYCASGEGLGYWGQGTLVTVSS
chain 2: QSVLTQPPSVSEAPRQRVTISCSGSSSNIGNNDVKWYQQLPGKAPKLLIYYDDLLPSGVSDRFSGSKSGTSASLAISGLQSEDEADYYCAAWDDSLNGVVFGGGTKLTVL
With B10, the “pseudovirus neutralization IC50” value in test [1] is 0.0021 µg/mL; in test [2], 0.00193 µg/mL; in test [3], 0.0409 µg/mL; in test [4] it was 0.692 µg/mL; in test [5], > 10 µg/mL; in test [6] it was 0.788 µg/mL. Moreover, the “pseudovirus neutralization IC50” value in test [7] was > 10 µg/mL.

B11: BD56-929 (protein)
chain 1: QVQLVESGGGVVQPGRSLRLSCAASGFTFNKYGMHWVRQAPGKGLEWVAIILYDGSNKYYADSVKGRFTISRDNSKNTLYLQMNSLRAEDTAVYYCAKNGQGYGSTWYYFDYWGQGTLVTVSS
chain 2: DIQMTQSPSSLSASVGDRVTITCQASQDISNYLNWYQQKPGKPPKLLIYDASDLETGVPSRFSGSGSGTDFTFTINSLQPEDIATYYCQQYDNFPPTFGQGTKLEIK
For the molecule B11, the “pseudovirus neutralization IC50” value in test [1], in test [2], in test [3], in test [4], in test [5] and in test [6] was > 10 µg/mL each time. In addition, the “pseudovirus neutralization IC50” value in test [7] was 9.19 µg/mL.

B12: BD56-923 (protein)
chain 1: QVHLVESGGGVVQPGRSLRLSCAASGFTFSTYGMYWVRQAPGKGLEWVALIWYDGSNTDYADSVKGRFTISRDNSKNTLYLQMNSLRAEDTAVYYCAKKGGGPYCGGDCSFSYLDYWGQGTLVTVSS
chain 2: DIQMTQSPSTLSASVGDRVTITCRASQSVSNWLAWYRQEPGKAPKLLIYEASNLETGVPSRFSGSGSGTEFTLTISSVQPDDFATYYCQQYNGFSSFGQGTKLEIK
Turning to B12, the “pseudovirus neutralization IC50” value in test [1], in test [2], in test [3], in test [4], in test [5] and in test [6] was > 10 µg/mL throughout. Also, the “pseudovirus neutralization IC50” value in test [7] was > 10 µg/mL.

The values are drawn from the supplement of paper PMC9931576.
